From EP1087941B9, “THIOLESTERS AND USES THEREOF” (THE UNITED STATES OF AMERICA, as represented by THE …, priority 1998, dated 1999)

System: HIV-1RF
Assay: XTT cytoprotection assay (antiviral activity)
Type: cell-based
Details: for Antiviral Activity TI: in vitro therapeutic index (IC50/EC50); for loss of antiviral activity, fold decrease: BITA form compared with the disulfide form
Text: One exemplary means to determine antiviral activity is with CEM-SS cells and virus (e.g., HIV-1RF) (MOI = 0.01) using the XTT (2,3-bis[2-methoxy- 4-nitro-5-sulfophenyl] -5- [(phenylamino)carbonyl]-2H-tetrazolium hydroxide) cytoprotection assay, as described by Rice (1993) PNAS 90:9721-9724, and Rice (1997) Antimicrob. Agents Chemother. 41:419-426. Briefly, cells are infected with HIV-1RF (or other virus to be tested) in the presence of various dilutions of test compounds (thiolesters and controls). The cultures are incubated for seven days. During this time control cultures without protective compounds (i.e., compounds with anti-viral activity) replicate virus, induce syncytia, and result in about 90% cell death. The cell death is measured by XTT dye reduction. XTT is a soluble tetrazolimn dye that measures mitochondrial energy output, similar to MTT. Positive controls using dextran sulfate (an attachment inhibitor) or 3'-Azido -2'-3'-dideoxythymidine, AZT (a reverse transcriptase inhibitor) are added to each assay. Individual assays are done in duplicate using a sister plate method.
Effective antiviral concentrations providing 50% cytoprotection (EC50), and cellular growth inhibitory concentrations causing 50% cytotoxicity (IC50) are calculated.

SMILES: O=C(Nc1ccc(S(=O)(=O)c2ccc(NC(=O)c3ccccc3SSc3ccccc3C(=O)Nc3ccc(S(=O)(=O)c4ccc(NC(=O)c5cccs5)cc4)cc3)cc2)cc1)c1cccs1 [Compound 30D]
- Antiviral Activity TI (Table 3): 15.6

SMILES: NS(=O)(=O)c1ccc(Cn2sc3ccccc3c2=O)cc1 [23 BITA]
- loss of antiviral activity, fold decrease: 42 fold

SMILES: NS(=O)(=O)c1ccc(CCn2sc3ccccc3c2=O)cc1 [24 BITA]
- loss of antiviral activity, fold decrease: 5 fold

SMILES: O=C(Nc1ccc(S(=O)(=O)c2ccc(NS(=O)(=O)Cc3ccccc3[N+](=O)[O-])cc2)cc1)c1ccccc1SSc1ccccc1C(=O)Nc1ccc(S(=O)(=O)c2ccc(NS(=O)(=O)Cc3ccccc3[N+](=O)[O-])cc2)cc1 [Compound 34D]
- Antiviral Activity TI (Table 3): >25.7

SMILES: NS(=O)(=O)c1ccc(CNC(=O)c2ccccc2SC(=O)CCCC[n+]2ccccc2)cc1 [Compound 48]
- Antiviral Activity TI (Table 6): 50

SMILES: CC(=O)Nc1ccc(S(=O)(=O)c2ccc(NC(=O)c3ccccc3SC(=O)CCCC[n+]3ccccc3)cc2)cc1 [Compound 51]
- Antiviral Activity TI (Table 6): 63

SMILES: O=C(Nc1ccc(S(=O)(=O)c2ccc([N+](=O)[O-])cc2)cc1)c1ccccc1SSc1ccccc1C(=O)Nc1ccc(S(=O)(=O)c2ccc([N+](=O)[O-])cc2)cc1 [Compound 31D]
- EC50 increased, fold (disulfide form of compound 31 compared with 26): 2.6 fold

SMILES: CC(=O)Nc1cccc(S(=O)(=O)c2cccc(NC(=O)c3ccccc3SC(=O)CCCC[n+]3ccccc3)c2)c1 [Compound 52]
- Antiviral Activity TI (Table 6): 43

SMILES: COc1ccc(C(=O)Nc2ccc(S(=O)(=O)c3ccc(NC(=O)c4ccccc4SSc4ccccc4C(=O)Nc4ccc(S(=O)(=O)c5ccc(NC(=O)c6ccc(OC)cc6)cc5)cc4)cc3)cc2)cc1 [Compound 29D]
- Antiviral Activity TI (Table 3): 20.9

SMILES: O=C(CCCC[n+]1ccccc1)Sc1ccccc1C(=O)Nc1ccc(S(=O)(=O)c2ccc(NS(=O)(=O)Cc3ccccc3[N+](=O)[O-])cc2)cc1 [Compound 50]
- Antiviral Activity TI (Table 6): >109

SMILES: O=C(Nc1ccc(S(=O)(=O)c2ccc(NC(=O)c3ccccc3SSc3ccccc3C(=O)Nc3ccc(S(=O)(=O)c4ccc(NC(=O)c5cc([N+](=O)[O-])cc([N+](=O)[O-])c5)cc4)cc3)cc2)cc1)c1cc([N+](=O)[O-])cc([N+](=O)[O-])c1 [Compound 33D]
- Antiviral Activity TI (Table 3): >1.3
